Data published in US20220204996A1.

Target: PsaC-HydA1 chimeric polypeptide (Chlamydomonas reinhardtii)
Test: cell-based or functional assay

**Q.** For “ferredoxin (Fd) (from UniProt P07839 33-126)”, which Maximal rate of H2 production, TAP in the dark (GC) (µmol H2 (mg Chl)^-1 h^-1) is on record?
**A.** 1.5

**Q.** What about the average rate of H2 accumulation in the dark (GC-TCD, ΨH2 culture) (µmol H2 (mg Chl)^-1 h^-1) of the same substance?
**A.** 1.13
